Structures were worked out from names or drawings and are uncertain.
Assays:
MetRS (T. brucei) = MetRS (T. brucei) (Trypanosoma brucei brucei, UniProt Q38C91); experiment: MetRS (T. brucei) ATP depletion assay using Kinase-Glo; format: biochemical; conditions: read-out: A) MetRS (T. brucei) ATP depletion assay using Kinase-Glo, IC50
T. brucei = experiment: Growth inhibition assay of T. brucei cell cultures (Alamar Blue, 48 h); format: cell-based; conditions: read-out: B) T. brucei EC50

Protein sequences, listed by entry. Tags and fused reporters are not part of them. Residues count along the entry.
UniProt Q38C91, 1-773: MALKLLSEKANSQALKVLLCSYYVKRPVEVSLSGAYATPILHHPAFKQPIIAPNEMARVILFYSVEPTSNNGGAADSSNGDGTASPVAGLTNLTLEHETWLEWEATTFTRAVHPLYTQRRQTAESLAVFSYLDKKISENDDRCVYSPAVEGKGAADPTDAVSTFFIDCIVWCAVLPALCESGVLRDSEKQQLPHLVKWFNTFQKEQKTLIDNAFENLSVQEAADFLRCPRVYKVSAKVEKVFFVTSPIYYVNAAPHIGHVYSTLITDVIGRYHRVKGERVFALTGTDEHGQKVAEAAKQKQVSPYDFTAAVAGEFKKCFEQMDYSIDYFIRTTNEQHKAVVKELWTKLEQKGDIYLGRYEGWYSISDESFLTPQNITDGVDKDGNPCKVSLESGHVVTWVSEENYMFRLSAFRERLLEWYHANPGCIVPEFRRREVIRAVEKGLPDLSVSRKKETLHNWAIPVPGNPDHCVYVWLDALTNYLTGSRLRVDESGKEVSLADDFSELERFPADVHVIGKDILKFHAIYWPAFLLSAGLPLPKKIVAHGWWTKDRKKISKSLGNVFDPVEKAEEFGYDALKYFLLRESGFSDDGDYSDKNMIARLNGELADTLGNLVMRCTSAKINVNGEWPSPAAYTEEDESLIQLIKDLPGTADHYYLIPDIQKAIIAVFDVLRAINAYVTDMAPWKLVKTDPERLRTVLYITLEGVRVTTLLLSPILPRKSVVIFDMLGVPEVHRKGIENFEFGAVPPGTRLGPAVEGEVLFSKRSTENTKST

Clc1cc(Cl)cc(CNCCc2nc3cnc(Cl)cc3[nH]2)c1
IC50 (MetRS (T. brucei)): 87 nM
EC50 (T. brucei): 1020 nM

From patent US10913736B2 (UNIVERSITY OF WASHINGTON, priority 2014, dated 2021)
